According to patent US7407783B2, “Fructosylamine oxidase” (priority 2002, dated 2008):

Tested on: FAO-Q2
Assay: Substrate specificity of FAO-Q2 (FAO activity, rate method, H2O2 colorimetry)
Format: biochemical, Fusarium proliferatum
Conditions: for Relative activity (%) FAO-Q2: activity of FAO-Q2 on the substrate, FV = 100
Protocol: Titration of enzyme can be performed by a method known in the art (e.g., kinetic method), for example, that described in Example 1 (3). In this method, hydrogen peroxide generated by the reaction of an FAO with a glycated amino acid or peptide is measured on the basis of absorbance (505 nm) of quinone pigment produced in the presence of hydrogen peroxide. The amount (μmole) of hydrogen peroxide generated per minute is calculated on the basis of molar absorptivity (5.16×10^3 M^−1 cm^−1) of quinone pigment and the resultant numerical value is taken as a unit (U) of enzyme activity.
FAO activity of the crude enzyme solution was determined by the aforementioned rate method. The time-course of generation of hydrogen peroxide in the reaction mixture below was measured by a colorimetric method, and FAO activity was evaluated.
A mixture (total 3 ml) except for the enzyme solution was equilibrated at 30° C. After adding the enzyme solution, the time-course of absorbance at 505 nm was measured. The amount (μmole) of hydrogen peroxide generated per minute was calculated on the basis of molar absorptivity (5.16×10^3 M^−1 cm^−1) of quinone pigment produced, and the resultant numerical value was taken as a unit(U) of enzyme activity. As a result, a strain having FAO was obtained.
The substrate specificity of the enzymes (FAO-Q1, FAO-Q2) contained in 2 fractions separated in (1), 3) above was determined. The FAO activity was measured using the respective two fractions as an enzyme solution according to the method described in Example 1(3). As a substrate, FV, FVH, FVHL, FVL, FVLS and FZL were used.

Row | Substance | Activity of FAO-Q2 on the substrate (in words) | Relative activity (%) FAO-Q2 [%]
1 | fructosyl valine-histidine (VH) [FVH] | active | 2.4
2 | fructosyl valine-leucine (VL) [FVL] | – | 0.6
